From ChEMBL document CHEMBL3988442, “University of Dundee, Small-Polar-MMV Screening Library” (2021).

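Whole-cell growth test on Mycobacterium tuberculosis, read after 3 days in glucose-containing 7H9 medium; the read-out is not stated. Compounds at 500 µM. Higher reads as more growth inhibition (inferred: compounds with an IC50 in retests scored well above the rest). About 18,000 compounds were tested under these conditions; 7.9% (about 1,400) showed 50% or more at least once.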

Values are the deposited “Percent Effect”, in %.
The controls that fix the scale are not given in the record; negative values are as filed.
The entries come from a sample that favours strong results.

Compound,percent effect
CN(C)C(CN)c1ccc(F)cc1 (centres undefined),55.37
CCNCc1nc(-c2ccccc2)no1,60.38
COc1c(Cl)cc(NC(=O)C2COCCN2)cc1Cl (centres undefined),69.66
COc1cccc(CNCCn2cccn2)c1OC,66.05
NC(=O)C1(NC(=O)Cc2ccc3ccccc3c2)CC1,-7.843
Cc1ccc(-n2nnnc2NC2CC2)cc1,51.88
O=C(Cc1ccc(F)c(F)c1)N1CCCO1,20.84
COCCNc1nnc(SCc2ccc(Br)cn2)s1,64.38
CCCN1CCC(NC(=O)c2ccncc2)CC1,16.21
CN1CCCN(C(=O)CC(C)(C)C)CC1,-5.123
CN(C)CCNC(=O)CCS(=O)(=O)c1ccc(Cl)cc1,-9.115
CNCCCNS(=O)(=O)c1cccc(C)c1C#N,1.721
CCN(CCO)Cc1cc(-c2cccs2)on1,50.04
c1ccn2c(CC3CCCNC3)nnc2c1 (centres undefined),-5.655
CC(C)c1csc(C(=O)N2CCOc3ncccc32)n1,66.94
Cn1c(Sc2ccc(C#N)cn2)nnc1C1CC1,19.14
CN(C)c1cc(CNC(=O)CCc2ccco2)ccn1,25.91
CN(C)C(CNC(=O)CN1CCCC1=O)c1ccco1 (centres undefined),7.436
CN(C)S(=O)(=O)Nc1ccc2c(c1)C(=O)CCC2,32.74
COc1ccc(Br)c(S(=O)(=O)NCCCN)c1,44.59
C[S+]([O-])c1nncn1Cc1ccccc1Cl (centres undefined),20.47
Nc1nccc(-c2cncc(F)c2)n1,20.43
NC(=O)C(Sc1nnc[nH]1)c1ccc(Br)cc1 (centres undefined),50.27
O=C(NCC[S+]([O-])c1ccccc1)c1cccnc1O (centres undefined),17.54
COc1cc(CNC(=O)NC2CCCC2)ccc1O,22.13
O=C(NCc1ccco1)Nc1nc2c(s1)COCC2,52.12
O=C(C1CCNCC1)N1CCNCC1,-3.708
CC(CN)C(=O)Nc1cn[nH]c1 (centres undefined),-1.24
OCCCNCC(O)COc1ccccc1 (centres undefined),-5.187
CC(N)c1nc2c(s1)CCC2 (centres undefined),-8.962
c1cc(N2CCCNCC2)ccn1,-6.828
CC(C)(C)c1ccccc1S(=O)(=O)NCCN,-4.504
CCn1ccc(C(=O)NCCSC(F)(F)F)cc1=O,9.797
CCSc1nc(N)c(C#N)cc1C#N,14.93
CN(C)S(=O)(=O)N1CCCC1COc1ccccc1 (centres undefined),81.47
O=c1c2ccccc2ncn1CCc1ccccn1,22.61
CNCCCNCc1ccc2c(c1)n(C)c(=O)n2C,-4.842
Cc1cncc(C(=O)Nc2cc(O)cc(F)c2)c1,22.97
NC1CCN(Cc2ccccc2)C1=O (centres undefined),-4.999
CCc1ccc(N(C(C)C(=O)NC)S(C)(=O)=O)cc1 (centres undefined),17.47
Cn1nccc1C1(O)CCOCC1,3.598
Cc1cnccc1NC(=O)NCCCn1ccnc1,2.695
Cc1nc(N)ncc1C(=O)NCC1COCCO1 (centres undefined),11.38
O=S(=O)(c1cccc2nsnc12)N1CCNCC1,-17.78
C=C(C)CSCC(=O)NC1CCOCC1,3.983
Cc1nn(C)c2nc(NCCSc3ncn[nH]3)sc12,51.77
NC(=O)C1CNCCN1C1CC1 (centres undefined),-2.593
CN(CCC#N)C(=O)CN1CCc2ccccc2C1,17.11
CCCc1cc(N)[nH]n1,27.31
CC(=O)Nc1ccccc1CN(C)Cc1ccncc1,-4.928
NS(=O)(=O)N1CCN(CCCc2cccc(F)c2)CC1,57.38
CCCS(=O)(=O)N(C)Cc1ccc(OCC)cn1,75.34
COc1ccc([C@H]2C[C@H](N)C2)cc1F,61.75
Oc1cc(C(F)(F)F)ccn1,-2.963
CC(C(N)=O)N1CCC(C(=O)NC2CCCCC2)CC1 (centres undefined),10.23
Cc1cc(C(=O)N2CCN(Cc3ccsc3)CC2)[nH]n1,77.11
Nc1nnc(SCc2cn3ccccc3n2)[nH]1,-1.096
O=C(CSc1nnc(NCc2ccco2)s1)NC1CC1,26.93
CCc1cnc(N2CCNCC2)s1,21.44
CCNC(=O)c1cc(N2CCC(C(N)=O)C2)ccn1 (centres undefined),-2.445
O=C(c1cccnc1)N1CCC(N2CC=CC2)CC1,33.64
CCOCc1nnc(NCc2nc(C)cs2)o1,-4.023
NC(=O)N1CCCN(CC2CCCC2)CC1,15.55
CSc1cc(NC(=O)NCCn2ccnc2)ccn1,7.957
O=C(Nc1cc(F)cc(F)c1)N[C@@H]1CNCC[C@H]1O,30.35
CNS(=O)(=O)c1ccc(C(=O)NCC2(C)CCC2)o1,29.42
CC1CN=C(N2CCN(CCc3ccccn3)CC2)S1 (centres undefined),18
COc1cc2c(nn1)CCNC2,-54.43
NC1(CO)CCCc2ccccc21 (centres undefined),-0.6293
CC(NCCn1cc(Br)cn1)c1ccncc1 (centres undefined),9.82
CCc1ncc(C(=O)NCCNc2ncccn2)s1,20.84
CN(Cc1cc(C2CC2)[nH]n1)C(=O)Cc1cccnc1,-4.867
CN(C)c1ccc(C(=O)NCCC(O)C(F)(F)F)cc1 (centres undefined),33.33
Cn1ccnc1-c1noc(NC(=O)c2ccccn2)n1,10.05
O=C(NCCNCc1ccc(F)cc1)c1ccco1,-4.782
CSCCC(NC(N)=O)C(=O)NCCc1ccccc1 (centres undefined),5.047
CC(=O)c1cnnn1C,-2.19
CNc1cccnc1N1CCCC1,63.96
CC(C)Oc1ccc(CNC(=O)N2CCCC2)cn1,70.99
C1CCC(COCCc2noc(C3CNC3)n2)C1,107.3
CN1CCCN(C(=O)c2cc(F)cc(F)c2)CC1,8.232
CCn1ccnc1C1CCN(C(=O)CCOC)CC1,10.85
Cc1nnc(SCCCNC(=O)CC2COCCN2)s1 (centres undefined),-10.53

The first 6 entries again:

- CN(C)C(CN)c1ccc(F)cc1 (centres undefined) | 55.37%
- CCNCc1nc(-c2ccccc2)no1 | 60.38%
- COc1c(Cl)cc(NC(=O)C2COCCN2)cc1Cl (centres undefined) | 69.66%
- COc1cccc(CNCCn2cccn2)c1OC | 66.05%
- NC(=O)C1(NC(=O)Cc2ccc3ccccc3c2)CC1 | -7.843%
- Cc1ccc(-n2nnnc2NC2CC2)cc1 | 51.88%